Compound potency records, mixed from different reports. Data source: NIAID ChemDB in PubChem.

Common to all: tests in culture; organism: Candida albicans; endpoint: MIC50

MIC50, MIC90 and the like: level of inhibition, or share of isolates inhibited. Blank or dashed fields: not listed here. Lines come from different laboratories, so protocols vary.

SMILES,strain,method,conditions,result
CC(=O)OCC1C=C(c2ccc(Cl)c(Cl)c2)C(=O)O1,25 isolates,-,-,2 µg/mL
CCCCCCCCCCCCCCCC(=O)NC1CCC(O)NC(=O)C2C(O)C(C)CN2C(=O)C(C(O)CC(N)=O)NC(=O)C(C(O)Cc2ccc(O)c(OS(=O)(=O)O)c2)NC(=O)C2CC(O)CN2C(=O)C(C(C)O)NC1=O,-,-,-,0.008 µg/mL
NC(=NCc1ccccc1)NCCCCCCCN1CCCCCCCCN=C(N)NC1=O,53T,-,-,2.5 µM
CO/C=C(\C(=O)OC)c1ccc(Cl)c(Cl)c1,ATCC 90028,-,-,>32 µg/mL
COc1ccc(-c2c3c(N)c4c(nc3nc3c2c(C)nn3-c2ccccc2)CCCC4)cc1,ATCC 10231,broth dilution / absorbance,-,125 µg/mL
Clc1ccc(C(Cn2ccnc2)OCc2csc3c(Cl)cccc23)c(Cl)c1,16 strains,-,-,0.25 µg/mL
CS(=O)(=O)OCC1COC(Cn2ccnc2)(c2ccc(-c3ccccc3)cc2)O1,44 strains,-,-,64 µg/mL
OC(Cn1cncn1)(Cn1cncn1)c1ccc(F)cc1F,2453 strains,-,-,0.25 µg/mL
COc1ccc(C(Cc2ccc(F)cc2)n2ccnc2)cc1,34 strains,-,-,64 µg/mL
CCCCCCCCCCCCCCCC(=O)NC1CC(O)C(O)NC(=O)C2C(O)C(C)CN2C(=O)C(C(O)CC(N)=O)NC(=O)C(C(O)Cc2ccc(O)c(OS(=O)(=O)O)c2)NC(=O)C2CC(O)CN2C(=O)C(C(C)O)NC1=O,FP629,-,-,0.004 µg/mL
O=C(OC[C@H]1CO[C@](Cn2ccnc2)(c2ccc(-c3ccccc3)cc2)O1)c1ccccc1,44 strains,-,-,8 µg/mL
CC(=O)OCC1C=C(c2cccc(Cl)c2)C(=O)O1,25 isolates,-,-,2 µg/mL
CC[C@@H]([C@H](C)O)n1ncn(-c2ccc(N3CCN(c4ccc(OC[C@@H]5CO[C@@](Cn6cncn6)(c6ccc(F)cc6F)C5)cc4)CC3)cc2)c1=O,10 strains (fluconazole- itraconazole-susceptible),-,-,<0.03 µg/mL
CCC(C)CC(C)CCCCCCCCC(=O)N[C@H]1C[C@@H](O)[C@H](NCCN)NC(=O)[C@@H]2[C@@H](O)CCN2C(=O)[C@H]([C@H](O)CCN)NC(=O)[C@H]([C@H](O)[C@@H](O)c2ccc(O)cc2)NC(=O)[C@@H]2C[C@@H](O)CN2C(=O)[C@H]([C@@H](C)O)NC1=O,15 strains,-,-,0.25 µg/mL
c1ccc(-c2ccc(C(c3ccccc3)n3ccnc3)cc2)cc1,-,-,-,0.67 µg/mL
N=C(N)N1CCN(Cc2cccnc2SCc2ccc(C(F)(F)F)cc2)CC1,SC5314 CAI,-,-,75 µg/mL
C[C@@H](c1nc(-c2ccc(C#N)cc2)cs1)[C@](O)(Cn1cnnc1)c1ccc(F)cc1F,660 isolates,-,-,0.008 µg/mL
Nc1[nH]c(=O)ncc1F,40 isolates azole-susceptible,-,-,0.16 µg/mL
C[C@H]1[C@H](O)[C@@H](C)/C=C/C=C/C=C/C=C/C=C/C=C/C=C/[C@H](O[C@@H]2O[C@H](C)[C@@H](O)[C@H](N)[C@@H]2O)C[C@@H]2O[C@](O)(C[C@@H](O)C[C@@H](O)CC[C@H](O)[C@@H](O)C[C@@H](O)CC(=O)O[C@H]1C)C[C@H](O)[C@H]2C(=O)O,Fluconazole-resistant 4 isolates pooled,-,-,0.5 µg/mL
COc1ccc(C(Cc2ccccc2[N+](=O)[O-])n2ccnc2)cc1,34 strains,-,-,256 µg/mL
Cc1ccc(-c2c3c(N)c4c(nc3nc3c2c(C)nn3-c2ccccc2)CCC4)cc1,CCC 130,broth dilution / absorbance,-,62.5 µg/mL
Clc1ccc(C(Cn2ccnc2)OCc2csc3c(Cl)cccc23)c(Cl)c1,63 isolates,visual reading,48 h,1 µg/mL
OC(Cn1cncn1)(Cn1cncn1)c1ccc(F)cc1F,Isolate HR-Micro,-,48 h,1.56 µg/mL
CC(C)=CCN=C(N)NCCCCCCCCCNCCCCCCCNC(N)=NCC=C(C)C,53T,-,-,80 µM
C[C@H]1[C@H](O)[C@@H](C)/C=C/C=C/C=C/C=C/C=C/C=C/C=C/[C@H](O[C@@H]2O[C@H](C)[C@@H](O)[C@H](N)[C@@H]2O)C[C@@H]2O[C@](O)(C[C@@H](O)C[C@@H](O)CC[C@H](O)[C@@H](O)C[C@@H](O)CC(=O)O[C@H]1C)C[C@H](O)[C@H]2C(=O)O,63 isolates,-,-,0.25 µg/mL
Nc1[nH]c(=O)ncc1F,58 strains,-,-,0.12 µg/mL
COc1ccc(C(Cc2ccccc2F)n2ccnc2)cc1,34 strains,-,-,64 µg/mL
CC(C)(C)C(=O)OCC1C=C(c2ccc(Cl)c(Cl)c2)C(=O)O1,ATCC 90028,-,-,1 µg/mL
N=C(N)N1CCN(Cc2cccnc2SCc2ccccc2CS(=O)(=O)c2ccccc2)CC1,SC5314 CAI,-,-,12.5 µg/mL
C#CCNC(N)=NCCCCCCCN1CCCCCCCCN=C(N)NC1=O,15T,-,-,2.5 µM
N=C(N)N1CCN(Cc2cccnc2SCc2cccc(OC(F)(F)F)c2)CC1,SC5314 CAI,-,-,80 µg/mL
CC(=O)N1CCN(c2ccc(OC[C@H]3CO[C@](Cn4ccnc4)(c4ccc(Cl)cc4Cl)O3)cc2)CC1,40 isolates azole-susceptible,-,-,0.01 µg/mL
N=C(N)N1CCN(Cc2cccnc2SCc2cc(F)cc(F)c2)CC1,SC5314 CAI,-,-,50 µg/mL
CN1CCN(c2ccc3nc(-c4ccc5nc(-c6ccc(O)cc6)[nH]c5c4)[nH]c3c2)CC1,RO99,-,-,12 µM
Cc1nn(-c2ccccc2)c2nc3nc4c(c(N)c3c(-c3ccc(Cl)cc3)c12)CCCC4,ATCC 10231,broth dilution / absorbance,-,125 µg/mL
C[C@H]1[C@H](O)[C@@H](C)/C=C/C=C/C=C/C=C/C=C/C=C/C=C/[C@H](O[C@@H]2O[C@H](C)[C@@H](O)[C@H](N)[C@@H]2O)C[C@@H]2O[C@](O)(C[C@@H](O)C[C@@H](O)CC[C@H](O)[C@@H](O)C[C@@H](O)CC(=O)O[C@H]1C)C[C@H](O)[C@H]2C(=O)O,32 strains,-,-,1 µg/mL
COc1ccc([N+](=O)[O-])cc1CSc1ncccc1CN1CCN(C(=N)N)CC1,SC5314 CAI,-,-,>100 µg/mL
COc1ccc(C(Cc2c(Cl)cccc2Cl)n2ccnc2)cc1,34 strains,-,-,16 µg/mL
CCC(C)CC(C)CCCCCCCCC(=O)N[C@H]1C[C@@H](O)[C@@H](OCCN)NC(=O)[C@@H]2[C@@H](O)CCN2C(=O)[C@H]([C@@H](O)CCN)NC(=O)[C@H]([C@H](O)[C@@H](O)c2ccc(O)cc2)NC(=O)[C@@H]2C[C@@H](O)CN2C(=O)[C@H]([C@H](C)O)NC1=O,Fluconazole-susceptible,-,-,0.01 µg/mL
O=c1o[nH]cc1-c1ccc(Cl)c(Cl)c1,ATCC 90028,-,-,>32 µg/mL
C=C(C)CN=C(N)NCCCCCCCN1CCCCCCCCN=C(N)NC1=O,15T,-,-,20 µM
C=CCSS(=O)CC=C,Clinical Isolate 3064,broth dilution,-,0.78 µg/mL
CCCCCCCCCCCCCCCC(=O)NC1CCC(O)NC(=O)C2C(O)C(C)CN2C(=O)C(C(O)CC(N)=O)NC(=O)C(C(O)Cc2ccc(O)c(OS(=O)(=O)O)c2)NC(=O)C2CC(O)CN2C(=O)C(C(C)O)NC1=O,FP582,-,-,0.03 µg/mL
COC(/C=C/c1ccccc1)=C1/C(=O)C=C(C)C1=O,Isolate 5 azole-resistant,-,-,0.4 µg/mL
O=C(OCC1COC(Cn2ccnc2)(c2ccc(-c3ccccc3)cc2)O1)c1ccccc1,44 strains,-,-,8 µg/mL
C/C=C/CN=C(N)NCCCCCCCN1CCCCCCCCN=C(N)NC1=O,15T,-,-,1.25 µM
Nc1ncccc1-c1cc(Cc2ccc(COc3ccccn3)cc2)no1,IFM49971,broth dilution,90% human serum,0.5 µg/mL
Clc1cc(Cl)c2c(c1)CCc1ccccc1C2n1ccnc1,12 isolates,-,-,0.03 µg/mL
COc1ccc(C(Cc2ccccc2-n2cccc2)n2ccnc2)cc1,34 strains,-,-,16 µg/mL
Cc1ccc(-c2c3c(N)c4c(nc3nc3c2c(C)nn3-c2ccccc2)CCCC4)cc1,CCC 128,broth dilution / absorbance,-,15.6 µg/mL
CCC(C)CC(C)CCCCCCCCC(=O)N[C@H]1C[C@@H](O)[C@H](NCCN)NC(=O)[C@@H]2[C@@H](O)CCN2C(=O)[C@H]([C@H](O)CCN)NC(=O)[C@H]([C@H](O)[C@@H](O)c2ccc(O)cc2)NC(=O)[C@@H]2C[C@@H](O)CN2C(=O)[C@H]([C@@H](C)O)NC1=O,-,broth dilution,-,1 µg/mL
CCS(=O)(=O)C(F)(F)C(O)(Cn1cncn1)c1ccc(F)cc1F,6 strains (fluconazole-resistant),-,-,1 µg/mL
OC[C@H]1CO[C@](Cn2ccnc2)(c2ccc(-c3ccccc3)cc2)O1,44 strains,-,-,32 µg/mL

Repeating the final 3 entries:

SMILES,strain,method,conditions,result
CCC(C)CC(C)CCCCCCCCC(=O)N[C@H]1C[C@@H](O)[C@H](NCCN)NC(=O)[C@@H]2[C@@H](O)CCN2C(=O)[C@H]([C@H](O)CCN)NC(=O)[C@H]([C@H](O)[C@@H](O)c2ccc(O)cc2)NC(=O)[C@@H]2C[C@@H](O)CN2C(=O)[C@H]([C@@H](C)O)NC1=O,-,broth dilution,-,1 µg/mL
CCS(=O)(=O)C(F)(F)C(O)(Cn1cncn1)c1ccc(F)cc1F,6 strains (fluconazole-resistant),-,-,1 µg/mL
OC[C@H]1CO[C@](Cn2ccnc2)(c2ccc(-c3ccccc3)cc2)O1,44 strains,-,-,32 µg/mL